“And” between values parts separate entries of the source, which are not always exact repeats. Equal values may be shown once.
Molecular target: SARS-CoV-2 spike HexaPro protein (SARS-CoV-2)

For “T^[change]^D_([change]) ([change] with [change]-V'37C in the trimerization domain and [change]-[chan (from UniProt Q9BYF1 18-615)”, the Kd was 850 pM and 120 pM.

Reference: article PMC12501226, “Development of an ultrahigh affinity, trimeric ACE2 biologic as a universal SARS-CoV-2 antagonist” (2025)
